Measured values from patent US20200262877A1, “ION CHANNEL-BINDING PEPTIDES AND METHODS OF USE THEREOF” (priority 2017, published 2020).

T1: hERG, Q12809
T1 chain: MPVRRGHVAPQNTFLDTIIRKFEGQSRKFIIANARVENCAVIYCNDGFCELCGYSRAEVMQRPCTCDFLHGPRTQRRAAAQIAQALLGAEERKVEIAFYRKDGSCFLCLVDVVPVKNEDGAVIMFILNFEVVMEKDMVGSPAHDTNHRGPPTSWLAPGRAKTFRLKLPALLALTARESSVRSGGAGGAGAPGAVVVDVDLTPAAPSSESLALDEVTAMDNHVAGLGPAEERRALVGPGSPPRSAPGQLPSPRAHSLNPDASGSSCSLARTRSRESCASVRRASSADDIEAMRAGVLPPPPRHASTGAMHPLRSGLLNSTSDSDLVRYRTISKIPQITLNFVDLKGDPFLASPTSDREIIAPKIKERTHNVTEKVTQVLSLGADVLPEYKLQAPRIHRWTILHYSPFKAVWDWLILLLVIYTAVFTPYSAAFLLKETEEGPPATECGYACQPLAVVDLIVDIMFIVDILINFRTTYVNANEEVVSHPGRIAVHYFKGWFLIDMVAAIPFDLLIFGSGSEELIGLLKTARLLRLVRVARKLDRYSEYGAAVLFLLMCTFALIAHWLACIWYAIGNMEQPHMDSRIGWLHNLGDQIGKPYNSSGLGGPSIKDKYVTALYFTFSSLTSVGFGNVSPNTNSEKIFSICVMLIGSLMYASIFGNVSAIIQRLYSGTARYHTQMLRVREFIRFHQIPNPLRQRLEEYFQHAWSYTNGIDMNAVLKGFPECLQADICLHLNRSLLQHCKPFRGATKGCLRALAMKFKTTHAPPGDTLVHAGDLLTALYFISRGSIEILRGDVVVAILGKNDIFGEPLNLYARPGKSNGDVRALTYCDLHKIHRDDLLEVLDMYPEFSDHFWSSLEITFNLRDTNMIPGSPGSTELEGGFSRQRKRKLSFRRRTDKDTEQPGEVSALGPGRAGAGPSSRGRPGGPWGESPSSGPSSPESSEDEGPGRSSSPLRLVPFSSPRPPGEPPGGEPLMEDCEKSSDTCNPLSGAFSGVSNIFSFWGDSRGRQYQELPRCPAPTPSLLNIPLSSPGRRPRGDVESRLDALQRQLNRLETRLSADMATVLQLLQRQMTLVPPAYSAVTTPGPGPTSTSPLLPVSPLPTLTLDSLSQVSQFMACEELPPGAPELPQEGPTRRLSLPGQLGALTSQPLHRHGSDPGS

B1: SEQ ID NO: 24 (peptide)
peptide: GSSCAKPGEMCMRIKCCDGQCGCNRGTGRCFCK
modifications: not checked
B2: SEQ ID NO: 22 (peptide)
peptide: GSSDYCSNDFCFFSCRRDRCARGDCENGKCVCKNCHLN
modifications: not checked
B3: SEQ ID NO: 29 (peptide)
peptide: GSVFINVKCRGSPECLPKCKEAIGKSAGKCMNGKCKCYP
modifications: not checked

Target: NR2A
Test: cell-based or functional assay

Binder | % activity at 0.2 µM [%] | % activity at 20 µM [%]
B1 | 102 | 100
B2 | 107 | 129
B3 | 93 | 87

Target: TRPA1
Test: cell-based or functional assay

Binder | % activity at 0.2 µM [%] | % activity at 20 µM [%]
B1 | 132 | 107
B2 | 90 | 128
B3 | 89 | 109

Target: Kv1.1
Test: cell-based or functional assay

Binder | % activity at 0.2 µM [%] | % activity at 20 µM [%]
B1 | 65 | 69
B2 | 83 | 97
B3 | – | 64

Target: Cav2.1
Test: cell-based or functional assay

Binder | % activity at 0.2 µM [%] | % activity at 20 µM [%]
B1 | 92 | 121
B2 | 98 | 99
B3 | 100 | 111

Target: T1, hERG, Q12809
Test: cell-based or functional assay

Binder | % activity at 0.2 µM [%] | % activity at 20 µM [%]
B1 | 88 | 78
B2 | 84 | 79
B3 | 95 | 78

Target: Kv1.3
Test: cell-based or functional assay

Binder | % activity at 0.2 µM [%] | % activity at 20 µM [%]
B1 | 94 | 73
B2 | 100 | 51
B3 | 21 | 0

Target: TRPV1
Test: cell-based or functional assay

Binder | % activity at 0.2 µM [%] | % activity at 20 µM [%]
B1 | 131 | 102
B2 | 102 | 67
B3 | 109 | 86

Target: Kir2.1
Test: cell-based or functional assay

Binder | % activity at 0.2 µM [%] | % activity at 20 µM [%]
B1 | 104 | 90
B2 | 94 | 97
B3 | 103 | –

Target: α4β2 nicotinic receptor
Test: cell-based or functional assay

Binder | % activity at 0.2 µM [%] | % activity at 20 µM [%]
B1 | 97 | 88
B2 | 92 | 83
B3 | 108 | 101

Target: 5HT3a
Test: cell-based or functional assay

Binder | % activity at 0.2 µM [%] | % activity at 20 µM [%]
B1 | 85 | 84
B2 | 77 | 95
B3 | 122 | 91

Target: Kv2.1
Test: cell-based or functional assay

Binder | % activity at 0.2 µM [%] | % activity at 20 µM [%]
B1 | 91 | –
B2 | 110 | 93
B3 | 91 | 121

Target: Kv1.2
Test: cell-based or functional assay

Binder | % activity at 0.2 µM [%] | % activity at 20 µM [%]
B1 | 74 | 83
B2 | 82 | 34
B3 | 77 | 42

Target: α3β4 nicotinic receptor
Test: cell-based or functional assay

Binder | % activity at 0.2 µM [%] | % activity at 20 µM [%]
B1 | 101 | 87
B2 | 98 | 92
B3 | 108 | 98

Target: Cav2.2
Test: cell-based or functional assay

Binder | % activity at 0.2 µM [%] | % activity at 20 µM [%]
B1 | 120 | 102
B2 | 130 | 86
B3 | 116 | 100

Target: GABA
Test: cell-based or functional assay

Binder | % activity at 0.2 µM [%] | % activity at 20 µM [%]
B1 | 96 | 114
B2 | 99 | 124
B3 | 123 | 104

Target: NR2B
Test: cell-based or functional assay

Binder | % activity at 0.2 µM [%] | % activity at 20 µM [%]
B1 | 102 | 92
B2 | 94 | 97
B3 | 101 | 82
